Pooled drug test results. Numbers come from NIAID ChemDB, via PubChem.

Shared fields: enzyme or target tests; agent: HIV-1; target: Reverse transcriptase; measure: IC50

ICn is the concentration giving n% inhibition. a–b is a range or a potency band. An empty or dashed field is not shown. Lines come from different laboratories, so protocols vary.

structure | mutations | strain or isolate | value
Cn1cc(C(=O)O)c(=O)c2cc(N)c(N3CCN(c4ccccn4)CC3)cc21 |  |  | 800 µM
CC(=O)Oc1c(OCC(=O)c2ccccc2)ccc2c1C(=O)c1ccccc1C2=O | Y181C |  | >100 µM
CCCC#CC1(C(F)(F)F)OC(=O)Nc2ccc([N+](=O)[O-])cc21 |  |  | 0.276 µM
O=c1ccn([C@H]2C[C@H](F)[C@@H](CO)O2)c(=O)[nH]1 |  |  | 0.07 µM
CC(C)Nc1cccnc1N1CCN(C(=O)c2cc3ccccc3[nH]2)CC1 |  | IIIB | 0.25 µM
CCCN1c2ccccc2N(C)C(=O)c2ccnnc21 |  |  | <330 µM
CCOCn1c(Sc2ccccc2)c(CC)c(=O)[nH]c1=O |  |  | 0.14 µM
CN1C(=O)c2ccnnc2N(C2CC2)c2ccccc21 |  |  | <330 µM
O=C(c1c(O)cc(O)cc1O)c1c(-c2ccc(O)cc2)oc2cc(O)c3c(c12)O[C@H](c1ccc(O)cc1)CC3 |  | IIIB | 34 µg/mL
CCCCCCCCCCCCCCCC(=O)NC1C(COP(=O)(O)OC2C(O)C(COP(=O)(O)OC3C(O)C(CO)OC3n3cnc4c(N)ncnc43)OC2n2cnc3c(N)ncnc32)OC(n2cnc3c(N)ncnc32)C1O |  |  | >100 µM
Cc1cnc(=O)n([C@H]2C[C@H](F)[C@@H](CO)O2)c1 |  |  | 3.6 µM
Cc1cn([C@@]23CC2[C@H](COP(=O)(O)OP(=O)(O)OP(=O)(O)O)[C@@H](N=[N+]=[N-])C3)c(=O)[nH]c1=O |  | BH10 | >1 µM
Cc1cn([C@H]2C[C@H](F)[C@@H](CO)O2)c(=O)nc1N |  |  | 0.6 µM
CCCN1C(=O)c2ccnnc2N(CC)c2ccc(C)cc21 |  |  | <330 µM
Cc1cn([C@H]2CC[C@@H](OCP(=O)(O)OP(=O)(O)OP(=O)(O)O)[C@@H]2F)c(=O)[nH]c1=O |  |  | 0.04 µM
Nc1nc(=O)n([C@@H]2CC[C@H](COP(=O)(O)OP(=O)(O)OP(=O)(O)O)O2)cc1F |  |  | ~1.4 µM
S=C(NCCc1ccccn1)Nc1cnccn1 |  |  | 33–330 µM
CC(=O)C(C)Oc1ccc(O)c2c1C(=O)c1ccccc1C2=O |  |  | >100 µM
O=C(O)C(=O)CC(=O)C1(Cc2ccc(Cl)cc2)CCCN(Cc2ccccc2)C1 |  |  | 100 µM
CC(C)Nc1cccnc1N1CCN(C(=O)c2cc3cc(F)ccc3[nH]2)CC1 |  | IIIB | 0.21 µM
Cc1cn([C@H]2C[C@H](F)[C@@H](COP(=O)(O)OP(=O)(O)OP(=O)(O)O)O2)c(=O)[nH]c1=O |  | IIIB | 0.2 µM
CC(C)=CCOc1cc(NC(=S)c2ccoc2C)ccc1Cl |  |  | 0.01 µM
Cn1ncc2c1S(=O)(=O)NC(=O)N2Cc1ccc(Br)cc1 |  |  | 50 µM
CCN1C(=O)c2cc(Cl)nnc2N(CC)c2ccc(C)cc21 |  |  | ~330 µM
Cc1cn([C@H]2C[C@H](F)[C@@H](CO)O2)c(=S)[nH]c1=S |  |  | >10 µM
O=C1c2c(O)cc(O)cc2O[C@]12c1c(cc(O)c3c1O[C@H](c1ccc(O)cc1)CC3)O[C@H]2c1ccc(O)cc1 |  | IIIB | 42 µg/mL
CCC(=O)COc1ccc(OC(C)=O)c2c1C(=O)c1ccccc1C2=O |  |  | >100 µM
CC(=O)Oc1c(OC(C)C(C)=O)ccc2c1C(=O)c1ccccc1C2=O | K103N |  | 100 µM
COC(=O)[C@H](Cc1ccccc1)NP(=O)(O)OC[C@H]1O[C@@H](n2cc(C)c(=O)[nH]c2=O)C[C@@H]1N=[N+]=[N-] |  |  | >100 µM
CCN(CC)CCNc1nc(NCCCCNC(=O)CCCCC(=O)NCCCCNc2nc3c(c(NCCN(CC)CC)n2)CC=CC3)nc2c1CC=CC2 |  |  | >50 µM
CCN1C(=O)c2ccnnc2N(C2CC2)c2ccccc21 |  |  | <330 µM
Cc1cn([C@H]2CC[C@@H](COP(=O)(O)OP(=O)(O)OP(=O)(O)O)[C@@H]2F)c(=O)[nH]c1=O |  |  | 200 µg/mL
CCCCCCCC/C=C/CCCCCCCCCCCCCC |  |  | 4.8 µM
Nc1ccc2c(O)c(Br)c(S(=O)(=O)O)cc2c1Br |  |  | 180 µM
Nc1ncnc2c1ncn2[C@H]1CC[C@@H](COP(=O)(O)OP(=O)(O)OP(=O)(O)O)O1 |  |  | 0.5 µM
CC(=O)Oc1c(OCC(=O)c2ccc(-c3ccccc3)cc2)ccc2c1C(=O)c1ccccc1C2=O | Y181C |  | >100 µM
CCCCCCCCCCCCCCCC(=O)NC1C(COP(=O)(O)OC2C(O)C(COP(=O)(O)OC3CC(CO)OC3n3cnc4c(N)ncnc43)OC2n2cnc3c(N)ncnc32)OC(n2cnc3c(N)ncnc32)C1O |  |  | <100 µM
NS(=O)(=O)c1ccc(NC(=O)c2ccccc2SSc2ccccc2C(=O)Nc2ccc(S(N)(=O)=O)cc2)cc1 |  |  | >100 µM
COC(=O)[C@H](Cc1c[nH]c2ccccc12)NP(=O)(OCCC#N)OC[C@H]1O[C@@H](n2cc(C)c(=O)[nH]c2=O)C[C@@H]1N=[N+]=[N-] |  |  | >100 µM
Cc1cc(C(=O)O)ccc1N=Nc1c(S(=O)(=O)O)cc2cc(NC(=O)Nc3ccc4c(O)c(N=Nc5ccc(C(=O)O)cc5C)c(S(=O)(=O)O)cc4c3)ccc2c1O |  |  | 0.025–0.1 µM
CSC1=NC2(C[C@@H]2c2ccccc2)C(=O)N1C(C)=O |  |  | 22.2 µg/mL
CC(C)=CCOc1cc(NC(=S)c2ccsc2C)ccc1Cl | RT-P236L |  | 0.3 µM
CCCCC#CC1(C(F)(F)F)OC(=O)Nc2ccc([N+](=O)[O-])cc21 |  |  | 0.304 µM
C=Cc1cn([C@H]2C[C@H](F)[C@@H](CO)O2)c(=O)[nH]c1=O |  |  | 0.025 µM
S=C(NCCc1ccccn1)Nc1ncccn1 |  |  | 33–330 µM
CC(=O)Oc1c(OCC(=O)c2ccc(Br)cc2)ccc2c1C(=O)c1ccccc1C2=O | K103N |  | 9 µM
Cc1ccc2c(c1)N(C)C(=O)c1ccnnc1N2C1CC1 |  |  | <330 µM
CC(=O)Oc1ccc(OC(C)C(C)=O)c2c1C(=O)c1ccccc1C2=O |  |  | >100 µM
CC(C)=CCOc1cc(NC(=S)c2ccoc2C)ccc1Cl | RT-Y188L |  | >100 µM
CCCCCCCCCCCCCCCC/C=C\CCC#CCCC(=O)O[C@H](C)C[C@H](CCC[C@@](C)(O)CC(=O)NCCS(=O)(=O)O)CC(C)=O |  |  | 6.5 µM

4 of the rows above, restated:

structure	mutations	strain or isolate	value
CCCC#CC1(C(F)(F)F)OC(=O)Nc2ccc([N+](=O)[O-])cc21			0.276 µM
CC(C)Nc1cccnc1N1CCN(C(=O)c2cc3cc(F)ccc3[nH]2)CC1		IIIB	0.21 µM
Cc1cn([C@H]2C[C@H](F)[C@@H](COP(=O)(O)OP(=O)(O)OP(=O)(O)O)O2)c(=O)[nH]c1=O		IIIB	0.2 µM
Cc1ccc2c(c1)N(C)C(=O)c1ccnnc1N2C1CC1			<330 µM